{"source": "patent US20040102514A1", "about": "(priority 2003, published 2004)", "assay": "Solubility of the powder for mixing into feed", "data": [{"substance": "12,13-Epoxytricothec-9-ene-3α,7α,8α, 15-tetraol", "values": [{"measurement": "solubility", "value": "fully soluble"}]}]}
